PSTVd loop 6 mutant pool in Nicotiana benthamiana

From the data files of Wu et al. 2024, doi:10.1371/journal.ppat.1012142.

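A pool of all variants was put on leaves of three Nicotiana benthamiana plants. Samples came from the inoculated region at 5 days, the leaf margin at 10 and upper systemic leaves at 12.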

PSTVd intermediate strain, loop 6: wild type UGACCGCGAG, pool pattern UNNNCGNNNG; upper and lower strand joined, each 5' to 3', the first 5 letters being the upper strand, closing pairs included.

Numbers give reads per thousand; 0 = not seen among the reads, higher = more abundant.
Each site shows the three plants.
"Pool" is the share in the plasmid pool used as inoculum, on the same scale.
The inoculated region was read from the minus strand, the other sites from the plus strand.

sequence,pool,inoculated region,leaf margin,systemic leaves
UGCACGUCUG,0.484,0.122 / 0.0539 / 0.0738,0.0276 / 0 / 0,0.0180 / 0 / 0
UGCACGUGAG,0.183,0.0869 / 0.162 / 0.240,0.0276 / 0 / 0,0 / 0 / 0
UGCACGUGCG,0.261,0.139 / 0.0898 / 0.129,0.0276 / 0 / 0,0 / 0 / 0
UGCACGUGGG,0.170,0.0869 / 0.0898 / 0.0922,0 / 0 / 0,0 / 0 / 0
UGCACGUGUG,0.235,0.104 / 0.108 / 0.0184,0 / 0 / 0,0 / 0 / 0
UGCACGUUAG,0.209,0.0869 / 0.0539 / 0.129,0 / 0 / 0,0 / 0 / 0
UGCACGUUCG,0.275,0.191 / 0.0898 / 0.0184,0.138 / 0 / 0,0 / 0 / 0
UGCACGUUGG,0.275,0.104 / 0.0898 / 0.0922,0 / 0 / 0.0232,0 / 0 / 0
UGCACGUUUG,0.418,0.122 / 0.0719 / 0.111,0 / 0 / 0,0 / 0 / 0
UGCCCACAGG,0.0131,0 / 0 / 0,0 / 0 / 0,0 / 0 / 0
UGCCCGAAAG,0.183,0.695 / 0.736 / 0.443,0.110 / 0.0504 / 0.0928,0 / 0 / 0
UGCCCGAACG,0.170,0.122 / 0.0719 / 0.0369,0 / 0 / 0.0232,0 / 0 / 0
UGCCCGAAGG,0.0654,0.122 / 0.126 / 0.0738,0 / 0 / 0,0 / 0 / 0
UGCCCGAAUG,0.196,0.104 / 0.0719 / 0.0922,0.0276 / 0 / 0,0 / 0 / 0
UGCCCGACAG,0.235,0.174 / 0.0359 / 0.0553,0 / 0 / 0.0232,0 / 0.0404 / 0
UGCCCGACCG,0.183,0.0869 / 0.108 / 0.0553,0 / 0 / 0,0 / 0 / 0
UGCCCGACGG,0.157,0.104 / 0.144 / 0.0738,0 / 0 / 0,0 / 0 / 0
UGCCCGACUG,0.288,0.139 / 0.0539 / 0.148,0.0276 / 0 / 0,0 / 0 / 0
UGCCCGAGAG,0.235,0.122 / 0.0719 / 0.0922,0.0276 / 0.0252 / 0,0 / 0 / 0
UGCCCGAGCG,0.157,0.191 / 0.126 / 0.0922,0 / 0 / 0,0 / 0 / 0
UGCCCGAGGG,0.209,0.0521 / 0.0898 / 0.0738,0.0276 / 0 / 0.0232,0 / 0 / 0
UGCCCGAGUG,0.222,0.122 / 0.180 / 0.0369,0 / 0 / 0,0 / 0 / 0
UGCCCGAUAG,0.183,0.139 / 0.0719 / 0.111,0 / 0.0252 / 0.255,0 / 0 / 0
UGCCCGAUCG,0.301,0.104 / 0.0719 / 0.0922,0.0276 / 0 / 0.0464,0 / 0 / 0
UGCCCGAUGG,0.209,0.104 / 0.108 / 0.0184,0 / 0 / 0,0 / 0 / 0
UGCCCGAUUG,0.340,0.122 / 0.0898 / 0,0 / 0 / 0,0 / 0 / 0
UGCCCGCAAG,0.0784,0.626 / 0.898 / 0.443,0 / 0.0252 / 0.0464,0.0180 / 0.0606 / 0.0205
UGCCCGCACG,0.196,0.0174 / 0.0719 / 0.0738,0 / 0 / 0,0 / 0 / 0
UGCCCGCAGG,0.118,0.104 / 0.0898 / 0.0184,0.0552 / 0 / 0,0 / 0 / 0
UGCCCGCAUG,0.105,0.695 / 0.772 / 0.553,0.0828 / 0.0757 / 0.0464,0 / 0 / 0
UGCCCGCCAG,0.105,0.869 / 0.790 / 0.701,0.138 / 0.0504 / 0.0928,0 / 0 / 0
UGCCCGCCCG,0.170,0.122 / 0.0180 / 0.0553,0.0276 / 0 / 0.0232,0 / 0 / 0
UGCCCGCCGG,0.196,0.0869 / 0.144 / 0.0922,0.0276 / 0 / 0,0 / 0 / 0
UGCCCGCCUG,0.353,0.139 / 0.0359 / 0.129,0 / 0 / 0,0 / 0 / 0
UGCCCGCGAG,0.144,0.278 / 0.180 / 0.295,0.442 / 0.555 / 0.232,0.323 / 0.222 / 0.574
UGCCCGCGCG,0.0915,0.209 / 0.0359 / 0.111,0.0276 / 0 / 0.0232,0 / 0 / 0
UGCCCGCGGG,0.248,0.174 / 0.108 / 0.0738,0 / 0 / 0.0464,0 / 0 / 0
UGCCCGCGUG,0.0654,0.122 / 0.0719 / 0.111,0.0276 / 0 / 0.0232,0 / 0 / 0.0205
UGCCCGCUAG,0.0915,0.695 / 0.665 / 0.424,0.0828 / 0.0504 / 0.0232,0.0180 / 0.0404 / 0.0820
UGCCCGCUCG,0.222,0.139 / 0.0359 / 0.0553,0 / 0 / 0.0232,0 / 0 / 0
UGCCCGCUGG,0.0654,0.156 / 0.0898 / 0,0 / 0 / 0,0 / 0 / 0
UGCCCGCUUG,0.248,0.174 / 0.126 / 0.0553,0 / 0 / 0,0 / 0 / 0
UGCCCGGAAG,0.118,0.191 / 0.0898 / 0.0369,0.0276 / 0 / 0.0232,0 / 0 / 0
UGCCCGGACG,0.157,0.139 / 0.108 / 0.111,0 / 0 / 0.0232,0 / 0 / 0
UGCCCGGAGA,0.0131,0 / 0 / 0,0 / 0 / 0,0 / 0 / 0
UGCCCGGAGG,0.105,0.0869 / 0.0719 / 0.0738,0.0276 / 0 / 0,0 / 0 / 0
UGCCCGGAUG,0.222,0.122 / 0.0719 / 0.0922,0.0552 / 0 / 0,0 / 0 / 0
UGCCCGGCAG,0.196,0.0348 / 0.126 / 0.0738,0 / 0 / 0,0 / 0 / 0
UGCCCGGCCG,0.0915,0.0869 / 0.162 / 0.0553,0 / 0 / 0,0 / 0 / 0
UGCCCGGCGG,0.183,0.156 / 0.108 / 0.129,0 / 0 / 0,0 / 0 / 0
UGCCCGGCUG,0.275,0.104 / 0.0898 / 0.0553,0 / 0 / 0,0 / 0 / 0
UGCCCGGGAG,0.196,0.191 / 0.0719 / 0.129,0 / 0.0252 / 0.0232,0 / 0 / 0
UGCCCGGGCG,0.144,0.122 / 0.0539 / 0.111,0 / 0 / 0,0 / 0 / 0
UGCCCGGGGG,0.131,0.174 / 0.0359 / 0.148,0 / 0 / 0,0 / 0 / 0

Extract of 4 entries:

sequence,pool,inoculated region,leaf margin,systemic leaves
UGCCCGCUCG,0.222,0.139 / 0.0359 / 0.0553,0 / 0 / 0.0232,0 / 0 / 0
UGCCCGGAGG,0.105,0.0869 / 0.0719 / 0.0738,0.0276 / 0 / 0,0 / 0 / 0
UGCACGUGAG,0.183,0.0869 / 0.162 / 0.240,0.0276 / 0 / 0,0 / 0 / 0
UGCCCGGCGG,0.183,0.156 / 0.108 / 0.129,0 / 0 / 0,0 / 0 / 0

For reference, wild type rose from 20.7 per thousand in the pool to 195, 198, 203 (inoculated region), 629, 591, 734 (leaf margin) and 942, 870, 868 (systemic leaves).
With 36,220-57,551 reads a sample, very low values are single reads.
Sequences that differ at fixed positions probably stem from PCR or sequencing errors, and defective variants can be carried along by functional ones.